# Results as given in paper PMC6415679 (ChemMedChem, 2018).
# Read-outs that look alike come from different tables or passages of the source.
# Columns and labels:
# Assay type in all cases: biochemical
# [1] = target: ACT (Enzo) (Bordetella pertussis, UniProt P0DKX7)
# [2] = target: ACT (Sigma) (Bordetella pertussis, UniProt P0DKX7); conditions: read-out: IC50 ACT Sigma
# [3] = target: edema factor (EF) (Bacillus anthracis, UniProt P40136); conditions: read-out: IC50 EF
# [4] = read-out: IC50 values, range over all enzymes tested
Substance,IC50 ([1]; read-out: IC50 ACT Enzo) [nM],"IC50 [1, 4] [nM]",IC50 [2] [nM],IC50 [3] [nM]
(7-Deazaadenine-9-yl)ethoxy)methyl)phosphonic acid diphosphate [Compound 40a],4.08 ± 0.75,0.5 to 21,0.51 ± 0.12,2.54 ± 0.65
(8-Aza-7-deazaadenine-9-yl)ethoxy)methyl)phosphonic acid diphosphate [Compound 40b],20.8 ± 0.1,0.5 to 21,12.7 ± 0.3,5.28 ± 1.33
